Laboratory results from publication PMC7802229, “Alkaloid and benzopyran compounds of Melicope latifolia fruit exhibit anti-hepatitis C virus activities” (BMC Complementary Medicine and Therapies, 2021).

System: HCV JFH1a
Assay: Antiviral activity assay (HCV infection of Huh7it-1 cells, titre by immunostaining)
Assay type: cell-based, hepatitis C virus (genotype 2a)
Conditions: selectivity index from CC50 and IC50; ratio CC50 / IC50
Method: Hepatocyte cells of Huh7it-1 [18] were cultivated in DMEM-Dulbeco’s Modiffied Eagle Medium (GIBCO Invitrogen). The medium was supplemented with 10% Fetal Bovine Serum (FBS, GIBCO-Invitrogen), 0.15 mg/ml kanamycin solution (SIGMA) and 1x Non-Essential Amino Acids (NEAA, GIBCO-Invitrogen). The cell culture was incubated in 5% CO2 at 37 °C. HCV JFH1a was propagated in Huh7it-1 suspended in 4 ml JFH1 suspension and 4 ml DMEM and was incubated at 37 °C in 5% CO2 for 4 h. The suspension was divided into eight flasks and the supernatant was harvested on the third day. The supernatant was concentrated and examined for its viral titration and stored at − 80 °C [10].
The hepatocyte cells of Huh7it-1 were seeded on a 48 well plate with a cell density of 5.4 × 10^4 and incubated for 24 h. […] The supernatant was removed and washed with medium and placed back into solutions containing the same concentrations of extract. The cultures were then incubated for 48 h and the supernatant was taken to examine the titer infection of the sample by immunostaining.
Viral titration was performed by serially diluting the culture supernatant in DMEM medium and inoculating onto Huh7it-1 cells. After incubation for 41 h, the cells were fixed by 3.7% formaldehyde and permeabilized with 0.5% triton X-100 for 10 min. First antibody (HCV infected serum patient) was used in 1% bovine serum albumin (BSA) /2%BlockIce/ phosphate buffer saline (PBS) with a 300x dilution then incubated for 60 min. Second antibody (HRP-Goat anti human) was used in 1%BSA/2%BlockIce/PBS with a 400x dilution (50 μl/well) and then incubated for 60 min at room temperature. To visualize the infectious foci, 3,3′-diaminobenzidine (DAB) staining (DAB Thermo Scientific, USA) was used for 15 min until a brown color was observed. SPSS probit was used to calculate inhibition concentration 50% (IC50) values.

SMILES	SI
COc1cc2oc(=O)ccc2c2c1C=CC(C)(C)O2 [Alloxanthoxyletin]	4.3
COc1c2c(c3c(c1C(C)=O)OC(C)(C)C=C3)OC(C)(C)C=C2 [O-methyloktadrenolon]	5.8
Cn1c(=O)c2c(c3ccccc31)OC(C)(C)C=C2 [N-methylflindersine]	25.5
COc1cc(O)c(C(C)=O)c2c1C=CC(C)(C)O2 [Alloevodionol]	> 24.3
